Experimental data: PubChem BioAssay AID504761 (Drosophila RNAi Screening Center, 2011)
In all, the deposit lists about 22,000 reagents; this is a random part of those that have a named target and a result. Over the whole deposit, 116 (0.52%) are marked active. 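Calls depend on retest data that are not deposited; infection was ranked per plate without normalising between plates; the unit of the infection score is not given.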 The raw values are shown without normalisation. Not all columns of the deposit are shown. Not given: the amount of reagent, the time to read-out.

Purpose: 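Insect host genes that dengue virus relies on to spread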 (primary screen)
Cells: D.Mel-2 cells from Drosophila
Reagents: long dsRNA against Drosophila genes
Challenge: infection with dengue virus type 2; dose and infection time not stated
Measurement: 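Cells stained for dengue envelope protein and imaged; percent of infected cells per well on duplicate plates, ranked by infection, with stained nuclei counted for cell number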
Reading the numbers: infection score: higher = more virus-infected cells; cell count: higher = more cells in the well
Call rule: 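Low infection ranks in the two replicates (chance level up to 0.065) followed by a retest with a 1.5-fold or larger significant decrease, p below 0.05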
Calls: active = confirmed: knock-down lowers infection; inactive = not picked or not confirmed

CG7079 [DRSC16192]
- infection score, replicate 1: 5.99
- cell count, replicate 1: 6392
- Outcome: inactive

CG7079 [DRSC29827]
- infection score, replicate 1: 13.1
- cell count, replicate 1: 6762
- Outcome: inactive

Sidpn [DRSC02056]
- infection score, replicate 1: 13.7
- cell count, replicate 1: 6271
- Outcome: inactive

Drep1 [DRSC07527]
- infection score, replicate 1: 7.98
- cell count, replicate 1: 6701
- Outcome: inactive

CG8119 [DRSC20083]
- infection score, replicate 1: 8.97
- cell count, replicate 1: 6117
- Outcome: inactive

CG8119 [DRSC27407]
- infection score, replicate 1: 11.9
- cell count, replicate 1: 3861
- Outcome: inactive

pigeon [DRSC03565]
- infection score, replicate 1: 10.9
- cell count, replicate 1: 6255
- Outcome: inactive

CG14300 [DRSC14779]
- infection score, replicate 1: 14.6
- cell count, replicate 1: 2898
- Outcome: inactive

CG1677 [DRSC18116]
- infection score, replicate 1: 32.6
- cell count, replicate 1: 2646
- Outcome: inactive

CG1233 [DRSC08269]
- infection score, replicate 1: 8.49
- cell count, replicate 1: 6246
- Outcome: inactive

CG1233 [DRSC26110]
- infection score, replicate 1: 16.5
- cell count, replicate 1: 5613
- Outcome: inactive

Mcm10 [DRSC03162]
- infection score, replicate 1: 16
- cell count, replicate 1: 6047
- Outcome: inactive

Mcm10 [DRSC27996]
- infection score, replicate 1: 4.35
- cell count, replicate 1: 6453
- Outcome: inactive

Sas-4 [DRSC12505]
- infection score, replicate 1: 4.1
- cell count, replicate 1: 6609
- Outcome: inactive

CG42450 [DRSC20022]
- infection score, replicate 1: 1.34
- cell count, replicate 1: 6130
- Outcome: inactive

CG42450 [DRSC22751]
- infection score, replicate 1: 1.01
- cell count, replicate 1: 5071
- Outcome: inactive

Cse1 [DRSC03287]
- infection score, replicate 1: 1.78
- cell count, replicate 1: 6013
- Outcome: inactive

Cse1 [DRSC26857]
- infection score, replicate 1: 3.98
- cell count, replicate 1: 2110
- Outcome: inactive

stwl [DRSC11400]
- infection score, replicate 1: 7.6
- cell count, replicate 1: 6501
- Outcome: inactive

stwl [DRSC23913]
- infection score, replicate 1: 1.96
- cell count, replicate 1: 6273
- Outcome: inactive

CG10898 [DRSC14279]
- infection score, replicate 1: 7.37
- cell count, replicate 1: 6157
- Outcome: inactive

Taken from above:
Under “cell count, replicate 1”, CG7079 [DRSC29827] has 6762
For “cell count, replicate 1”, CG8119 [DRSC27407] shows 3861
Under “infection score, replicate 1”, Mcm10 [DRSC03162] is entered as 16
